# PubChem BioAssay AID624099, ICCB-Longwood | 2012
# Screen: 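Host factors E2 relies on to silence an HPV18 LCR reporter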 (primary screen)
# System: human C33A cervical carcinoma cells (HPV-negative) stably expressing BPV1 E2 and an HPV18 LCR luciferase reporter
# Reagents: siRNA pool against human genes, 40 nM
# Time to read-out: 72 h
# Measured: 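HPV18 LCR reporter light per well, converted to plate-wise z-scores that exclude control wells, and averaged over triplicate plates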
# Direction: mean z-score and z-score: higher = stronger reporter signal, weaker E2 silencing
# Call rule: 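Mean z ≥ 2 together with z ≥ 2 in two or more of the three replicates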
# The deposit covers about 21,000 reagents; shown is a part drawn at random. 497 of all reagents (2.4%) were called active. 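Higher z means weaker E2 silencing; only reporter increases were scored, and knock-downs that hurt cell survival may mask genuine repressor factors.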
gene,mean z-score,"z-score, replicate A","z-score, replicate B","z-score, replicate C",call
ZC2HC1A,-0.12,0,-0.25,-0.11,inactive
MKRN2,0.1,-0.21,0.3,0.22,inactive
KLHL11,-0.83,-0.96,-0.54,-1,inactive
SLC9A7,0.25,0.2,0.41,0.15,inactive
CCS,-1.06,-1.07,-1.24,-0.87,inactive
LRRC34,0.25,0.57,-0.04,0.21,inactive
GUSB,-1.28,-1.34,-1.37,-1.14,inactive
C4BPB,-1.39,-1.29,-1.2,-1.69,inactive
RAP2C,-0.77,-0.95,-0.69,-0.67,inactive
MYO1H,-0.16,0.36,-0.42,-0.41,inactive
VWA8,-0.39,-0.17,-0.65,-0.35,inactive
PITX2,1.76,2.19,1.65,1.44,inactive
CWC15,-0.89,-0.33,-1.23,-1.1,inactive
CLEC4A,-0.03,-0.67,0.11,0.47,inactive
ANKS1B,0.17,0.04,0.09,0.38,inactive
PRKCQ,0.62,0.49,0.68,0.71,inactive
LARGE2,-0.34,-0.44,-0.16,-0.43,inactive
FRRS1,-1.86,-1.82,-1.71,-2.05,inactive
LINC00924,-0.74,-1.05,-1.25,0.08,inactive
DNAJC28,-0.31,-0.25,-0.22,-0.45,inactive
KBTBD4,0.09,-0.2,-0.13,0.6,inactive
EXOSC5,0.15,0.08,0.11,0.27,inactive
CNGA1,0.5,0.5,0.38,0.63,inactive
DUSP26,0.48,0.61,0.3,0.54,inactive
PPIB,2.07,2.1,2.21,1.91,active
TRAFD1,1.6,1.31,1.85,1.63,inactive
TRPC4,0.17,0.08,0.18,0.25,inactive
ADGRD2,-0.08,0.1,-0.25,-0.1,inactive
FNDC5,0,0.36,-0.11,-0.25,inactive
KLK11,-0.4,-0.42,-0.44,-0.32,inactive
UFD1,0.59,0.7,0.55,0.52,inactive
OVOS2P,-1.48,-1.32,-1.94,-1.2,inactive
LINC00941,-0.37,-0.53,-0.56,-0.01,inactive
ACTL7A,-0.29,-0.4,-0.23,-0.25,inactive
PELI2,-0.46,-0.8,0,-0.59,inactive
SLCO1B1,-1.05,-0.95,-1.12,-1.08,inactive
PHF24,0.21,0.09,0.37,0.18,inactive
RNF20,0.45,0.34,0.85,0.16,inactive
HJV,-1.94,-2.18,-1.83,-1.81,inactive
TAFA5-AS1,0.21,0.22,0.18,0.23,inactive
MCEE,0.08,-0.16,0.16,0.23,inactive
GTPBP2,1.07,1.15,0.72,1.35,inactive
